Broadly, the IC50 is the concentration that inhibits the measured activity by half.

The assay concerns influenza NA. Briefly: In vitro inhibition of influenza neuraminidase, whole virus. In kind it is biochemical, influenza virus type A or type B. To be noted: read-out: IC50 constants; three selected inhibitors.
As for `CC(=O)Nc1c(O)cc(C(=O)O)cc1[N+](=O)[O-]` [Compound 105, 4-(acetylamino)-3-hydroxy-5-nitrobenzoic acid], the IC50 amounted to 5 mM.
The result for `CC(=O)Nc1c(N)cc(C(=O)O)cc1O.Cl` [Compound 106, 3-amino-4-(acetylamino)-5-hydroxybenzoic acid, hydrochloride] reads 10 mM; that for `CC(=O)Nc1ccc(C(=O)O)cc1N` [Compound 108, 4-(acetylamino)-3-aminobenzoic acid], 20 mM.

For the origin of these results see patent publication US5453533A (priority 1994, dated 1995).
